# From patent US4584132A, “1-(N-phosphinylcarbamoyl) β-lactam antibacterial agents” (dated 1986)
# Tests used:
# Assay in all cases: minimum inhibitory concentration, microdilution broth method
# [1] = tested on: S. aureus Smith
# [2] = tested on: P. vulgaris 503-1136
# [3] = tested on: P. vulgaris ATCC 6380
# [4] = tested on: E. coli 48
# [5] = tested on: P. aeruginosa 503-56
# [6] = tested on: P. aeruginosa Stone 130
# [7] = tested on: S. Pyoenes 503-782
# [8] = tested on: E. coli 257
# [9] = tested on: E. cloacae 9570A
# [10] = tested on: K. pneumoniae A
# [11] = tested on: S. marcescens SM
# [12] = tested on: P. mirabilis 190
smiles,measurement,setting,value
COP(=O)(NC(=O)N1C[C@H](NC(=O)Cc2ccccc2)C1=O)OC,Minimum Inhibitory Concentration,[1],16 µg/mL
same,Minimum Inhibitory Concentration,[2],16 µg/mL
same,Minimum Inhibitory Concentration,[3],16 µg/mL
same,Minimum Inhibitory Concentration,[4],32 µg/mL
same,Minimum Inhibitory Concentration,[5],> 128 µg/mL
same,Minimum Inhibitory Concentration,[6],> 128 µg/mL
same,Minimum Inhibitory Concentration,[7],> 128 µg/mL
same,Minimum Inhibitory Concentration,[8],32 µg/mL
same,Minimum Inhibitory Concentration,[9],64 µg/mL
same,Minimum Inhibitory Concentration,[10],64 µg/mL
same,Minimum Inhibitory Concentration,[11],32 µg/mL
same,Minimum Inhibitory Concentration,[12],16 µg/mL
